## Screening data, single-dose tests

Measurements from “University of Dundee, Small-Polar-MMV Screening Library” (2021), ChEMBL document CHEMBL3988442.

Mtb glucose medium: 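Phenotypic screen: M. tuberculosis growth, glucose 7H9 medium, 3 days; the read-out is not stated. Concentration: 50 µM. Direction is inferred from retests: higher values go with more growth inhibition. Of about 69,000 compounds tested this way, about 760 (1.1%) reached 50% or more in at least one test.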
Mtb cholesterol medium: 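Growth of Mycobacterium tuberculosis over 4 days (cholesterol / DPPC medium with tyloxapol); the read-out is not stated. Compounds at 50 µM. Higher reads as more growth inhibition (inferred: compounds with an IC50 in retests scored well above the rest). About 69,000 compounds were tested under these conditions; 0.54% (about 370) showed 50% or more at least once.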

Values are the deposited “Percent Effect”, in %. How 0% and 100% were set is not recorded. Most values in the screen are low, and negative values occur. The entries come from a sample that favours strong results. Two or more numbers in one place are separate tests of the same structure; such repeats can differ widely. A dash means the value is not listed here; it may have been measured.

CC(O)c1cccc(N2CCC3(CC2)Nc2ccccc2NC3=O)n1 (centres undefined) gave Mtb cholesterol medium: 1.62%.
Cc1cccc(-c2ccc(C(=O)NCCN3CCOCC3)c(=O)[nH]2)c1 gave Mtb cholesterol medium: 65.09%.
CCN(CCS(=O)(=O)CC)CC1CCCO1 (centres undefined) gave Mtb glucose medium: 0.2509% & -5.106%; Mtb cholesterol medium: 2.561%.
Cc1cnn(C2CCCN(C(=O)c3ccc(N(C)C)nn3)C2)c1 (centres undefined) gave Mtb cholesterol medium: -17.76%.
COCCNS(=O)(=O)c1cccc2c1CN(C(=O)c1cc(C)on1)CC2 gave Mtb glucose medium: 12.02% & -1.045%.
Cc1ccc(CN2CCC3(CC(=O)N(c4ccc5c(c4)OCO5)C3)C2)o1 (centres undefined) gave Mtb glucose medium: 24.65%.
COCCN(C/C=C/c1ccccc1)Cc1ccccn1 gave Mtb glucose medium: 20.51%.
O=C(NCCN1CCCCC1)c1ccn(-c2ccccc2)n1 gave Mtb glucose medium: -1.392%; Mtb cholesterol medium: -19.09%.
O=C(O)c1ccc(N2CCC(Oc3ccc(Cl)cc3)CC2)nc1 gave Mtb glucose medium: 3.926%; Mtb cholesterol medium: 4.26%.
CCn1nc(C)c2c1cnn2CCNS(=O)(=O)c1ccccc1 gave Mtb glucose medium: -10.06%.
Cc1cc2c(cc1NC(=O)NCC(C)C)OCO2 gave Mtb glucose medium: -22.19% & -1.959%.
Cc1cc(-c2c[nH]nc2C2CCCCN2C(=O)c2ccccc2)on1 (centres undefined) gave Mtb cholesterol medium: 0.6259%.
c1ccc(-c2cc(CN3CCCC(Cn4cncn4)C3)on2)cc1 (centres undefined) gave Mtb glucose medium: 36.53%; Mtb cholesterol medium: 9.716%.
O=C(O)C(F)(F)F.[H][C@@]12CN(Cc3nccs3)C[C@]1([H])C(=O)N(c1ccsc1)C2 gave Mtb glucose medium: 23.12%.
CC(=O)N[C@@H]1C[C@H](Cc2ccccc2)O[C@H](c2ccc(C(=O)O)cc2)C1 gave Mtb cholesterol medium: 0.9148% & -6.625%.
CC(C)CN1Cc2nc(N3CCC(O)CC3)ncc2C1=O gave Mtb glucose medium: 2.032%.
CCCc1nc(C(=O)N2CCN(C(=O)OC)CC2)cs1 gave Mtb glucose medium: -17.59% & 0.4093%; Mtb cholesterol medium: -1.574%.
Clc1cccnc1N1CCC(C2CCN(Cc3cccnc3)CC2)C1 (centres undefined) gave Mtb glucose medium: 8.898%.
c1ccc(-c2noc(CN3CCC(c4ccn[nH]4)CC3)n2)cc1 gave Mtb glucose medium: 13.62%.
O[C@@H]1CN(c2nc3ccccc3o2)CC[C@H]1c1ccc2c(c1)OCO2 gave Mtb glucose medium: -32.97%; Mtb cholesterol medium: -21.07%.
CCN1CCOC(CNCc2ccccc2OCc2ccncc2)C1 (centres undefined) gave Mtb glucose medium: -16.19%.
CCCN1Cc2ccccc2NC(=O)C12CCNC2 (centres undefined) gave Mtb glucose medium: 22.11%; Mtb cholesterol medium: -2.807%.
FC1(F)CCN(Cc2ccncc2)CC12CCN(c1cccnc1)C2.O=C(O)C(F)(F)F.O=C(O)C(F)(F)F.O=C(O)C(F)(F)F (centres undefined) gave Mtb glucose medium: 0.7862%; Mtb cholesterol medium: 11%.
N#CCCCn1nnnc1Cc1ccc(Br)cc1 gave Mtb glucose medium: 66.16%; Mtb cholesterol medium: 32.64%.
CN(Cc1nnc2n1CCC2)C(=O)c1ccc2c(c1)OCCCO2 gave Mtb glucose medium: 111.9%.
N#Cc1cccc(N2CCCC(CO)(CCOc3ccccc3)C2)n1 (centres undefined) gave Mtb cholesterol medium: 2.391%.
COc1cccc(OC)c1OCCn1c(C)c(C)oc1=O gave Mtb cholesterol medium: -3.936%.
CCc1ccccc1OC1CN(C(=O)c2ccsc2)C1 gave Mtb glucose medium: 53.6%; Mtb cholesterol medium: 52.69% & 46.91%.
CC(CCNC(=O)N1CCC1)N(C)C(=O)OC(C)(C)C (centres undefined) gave Mtb glucose medium: -7.332% & -3.823%; Mtb cholesterol medium: -0.394%.
Cc1cc(N2CCN(C(=O)Cc3ccc4c(c3)OCO4)CC2)cc(C)n1 gave Mtb cholesterol medium: 82.53%.
CC(NCc1cccc2c1OCCO2)c1cc2c(cc1Br)OCCO2 (centres undefined) gave Mtb glucose medium: 11.48%.
CC(C)N(Cc1ccccn1)C(=O)CCC(=O)c1ccccc1 gave Mtb glucose medium: 4.518%.
CC(C)N1CCCC2(CCN(Cc3noc(C4CCCC4)n3)C2)C1=O (centres undefined) gave Mtb cholesterol medium: -24.68% & 6.678%.
Cc1nnc(NCC(c2cccs2)N2CCCC2)c(C#N)c1C (centres undefined) gave Mtb glucose medium: -4.399%.
O=C(NCc1ccc(C(=O)O)o1)c1ccc(F)cc1 gave Mtb glucose medium: 18.86%.
CC(C)c1ccc(C(CN)N2CCc3sccc3C2)cc1 (centres undefined) gave Mtb glucose medium: 83.07%; Mtb cholesterol medium: 76.08%.
CCN(C)S(=O)(=O)NCC(O)c1cc2ccccc2s1 (centres undefined) gave Mtb glucose medium: 23.35%; Mtb cholesterol medium: 16.09%.
O=C(NCC1CCOC1)N1CCN(Cc2ccc3c(c2)CCO3)CC1 (centres undefined) gave Mtb glucose medium: 12.18%; Mtb cholesterol medium: -12.99%.
Cc1nc(N(C)C)nc(C)c1NC(=O)c1ccccc1F gave Mtb glucose medium: 23.61%.

Some entries from above, unchanged:

compound,Mtb glucose medium,Mtb cholesterol medium
Cc1cc2c(cc1NC(=O)NCC(C)C)OCO2,-22.19 & -1.959,-
Cc1cc(N2CCN(C(=O)Cc3ccc4c(c3)OCO4)CC2)cc(C)n1,-,82.53
COc1cccc(OC)c1OCCn1c(C)c(C)oc1=O,-,-3.936
CC(C)N1CCCC2(CCN(Cc3noc(C4CCCC4)n3)C2)C1=O (centres undefined),-,-24.68 & 6.678